In the assay the test system is Plasmodium falciparum NF54/iGP1_RE9H ulg8 stage V gametocytes. Description: gametocyte viability (luciferase signal relative to DMSO control) (% of DMSO control); higher = less gametocytocidal activity, active = 50 or less. The settings on record: exposure time: 72 h. The method in brief: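 Compounds from 10 mM DMSO stocks were spotted at nanolitre scale into 96-well plates, and day-12 stage V NF54/iGP1_RE9Hulg8 gametocytes (~2.5% gametocytemia, 3% hematocrit; medium with 0.5% Albumax II) were added to reach 10 µM or 1 µM, one well per concentration. The plates were kept at 37 °C for 72 h. Luminescence was then read on an IVIS Lumina II after mixing 90 µl of culture with 10 µl D-luciferin (30 mg/ml). Viability values are relative to the plate's mean DMSO vehicle signal.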

SMILES strings stand for the structures. The list shows a part of the results, in another mix than the full data.

In the case of `COc1ccc(C=C(C#N)C#N)cc1`, the gametocyte viability reads like this: (concentration: 1 µM) inactive: 101; (concentration: 10 µM) inactive: 107.

These data come from the supplement of paper PMC12297408.
